The text below walks through data of patent publication US20030216569A1, “Method of making HIV protease inhibitors” (priority 1993, published 2003).

Some entries of the source have several records that differ or are many. They are shown here; other results are not. There may be further records. Values given together differ, and nothing given here explains why; some may be repeats, others may stem from another dose, organism or construct than stated.

In the assay the test system is HIV-1 isolates IIIB and/or RF in CEM cells. Put plainly: SRI primary anti-HIV screen, MTT assay of inhibition of HIV-induced cell killing in CEM cells. In kind it is cell-based.

Take `CC(C)(C)NC(=O)[C@@H]1C[C@@H]2CCCC[C@@H]2CN1C[C@@H](O)[C@H](Cc1ccccc1)NC(=O)c1cccc(Cl)c1Cl` (relative stereo): the “SRI CEM IC50” value is 2550 ng/mL and 1240 ng/mL.

For `Cc1cnccc1C(=O)N[C@@H](CSc1ccccc1)[C@H](O)CN1CCN(Cc2cccnc2)C[C@H]1C(=O)NC(C)(C)C` (relative stereo), the “SRI CEM IC50” value is 501 ng/mL and 156 ng/mL.
